Measured values from several laboratories, pooled; numbers as filed in NIAID ChemDB.

Shared fields: tests in culture; agent: Candida albicans

A number after MIC or MFC names an inhibition level or a share of isolates.

smiles | read-out | method | strain | value
CC(=O)Sc1c[n+](C)c2ccccc2c1Nc1ccc(Cl)cc1 | MIC | broth dilution | ATCC 10231 | 256 µg/mL
CCCCCCCCCC[C@@H]1CC(=O)NCC(=O)N[C@@H](CCCCN)C(=O)N[C@@H](CC(C)(C)C)C(=O)N1 | MIC |  |  | 4 µg/mL
C[C@H](n1nnnc1CCN1CCN(c2ccccc2)CC1)[C@](O)(Cn1cncn1)c1ccc(F)cc1F | MIC |  |  | 8 µg/mL
FC(F)(F)c1cc(-c2cc3cc(Br)cnc3[nH]2)cc(C(F)(F)F)c1 | MIC100 |  | ATCC 10231 | 15.6 µg/mL
COc1ccccc1N1CCN(CCc2nnn([C@@H](C)[C@](O)(Cn3cncn3)c3ccc(F)cc3F)n2)CC1 | MIC |  |  | 8 µg/mL
COc1ccc(C(C[N+](=O)[O-])Sc2ccccc2C(=O)O)cc1 | MIC |  | ATCC64550 | 3.9 µg/mL
Clc1ccc(C(CCc2ccc(Br)cc2)Cn2ccnc2)c(Cl)c1 | MIC |  |  | >100 µg/mL
O=C(Nc1ccc(-c2nc3ccccc3[nH]2)cc1)c1cccc([N+](=O)[O-])c1 | MIC |  | ATCC 10231 | 12.5 µg/mL
C[C@@H](CC1COC(/C=C/C=C/c2ccc(C#N)cc2F)OC1)[C@](O)(Cn1cncn1)c1ccc(F)cc1F | MIC |  | ATCC64550 | 0.5–1 µg/mL
C[n+]1cc(SC(=O)c2ccccc2)c(Nc2ccc(Cl)cc2)c2ccccc21 | MIC | broth dilution | ATCC 10231 | 256 µg/mL
CC(=O)Nc1ccc(OCC(=O)N2N=C(c3nc4ccccc4[nH]3)CC2c2ccccc2Br)cc1 | MIC100 |  | MTCC 227 | 250 µg/mL
COc1ccc(OC[C@@H]2CC(Cn3ccnc3)(c3ccco3)N(C)O2)cc1 | MIC |  | ATCC26232 | 70 µg/mL
C[C@H](n1nnnc1CCN1CCN(c2ccc(F)cc2)CC1)[C@](O)(Cn1cncn1)c1ccc(F)cc1F | MIC |  | V-01-191A-261 (resistant) | 2 µg/mL
CC(C)NS(=O)(=O)c1ccc(CN(C)CC(O)(Cn2cncn2)c2ccc(F)cc2F)cc1 | MIC | resazurin | 98 001 | 0.002 µg/mL
O=C(O)c1ccccc1SC(C[N+](=O)[O-])c1ccc(Cl)cc1 | MIC |  | ATCC64550 | 3.9 µg/mL
Clc1ccccc1C(c1ccccc1)(c1ccccc1)n1ccnc1 | MIC | broth dilution | ATCC 10231 | 4 µg/mL
CC1(c2ccc(Cl)cc2)OCC(CO/N=C(\Cn2ccnc2)c2ccccc2)O1 | MIC |  |  | ≤10 µg/mL
C[C@H](n1nnnc1CCN1CCN(C(c2ccccc2)c2ccccc2)CC1)[C@](O)(Cn1cncn1)c1ccc(F)cc1F | MIC |  | V-01-191A-261 (resistant) | 4 µg/mL
O=C(Nc1ccc(-c2nc3ccccc3[nH]2)cc1)c1ccc(Cl)cc1 | MIC |  | ATCC 10231 | 25 µg/mL
C[C@H](n1nnnc1CCN1CCN(c2ccccn2)CC1)[C@](O)(Cn1cncn1)c1ccc(F)cc1F | MIC |  | V-01-191A-261 (resistant) | 4 µg/mL
CC(C(Sc1ccccc1C(=O)O)c1ccc(N(C)C)cc1)[N+](=O)[O-] | MIC |  | ATCC64550 | 15.6 µg/mL
Clc1ccccc1CC(Cn1ccnc1)c1ccccc1Cl | MIC |  |  | 100 µg/mL
CCCCn1c(N)c(-c2nc3ccccc3o2)sc1=S | MIC |  |  | >200 µg/mL
CCCCCCCCCCCCC(C)(O)C1CC(=O)NC(CO)C(=O)N[C@H](C)C(=O)NC(CC(=O)O)C(=O)NC(CC(N)=O)C(=O)NC(CC(N)=O)C(=O)NC(CO)C(=O)NC([C@@H](C)O)C(=O)O1 | MIC |  | ATCC10259 | 32 µg/mL
C=CCc1ccc(O)c(OC)c1 | MIC90 | turbidity | 2889 | 475 µg/mL
CC(=O)Nc1ccc(OCC(=O)N2N=C(c3nc4ccccc4[nH]3)CC2c2ccc(Cl)cc2)cc1 | MIC100 |  | MTCC 227 | 100 µg/mL
CCCCCCCCC[C@@H]1CC(=O)NCC(=O)N[C@@H](CCCCNC)C(=O)N[C@@H](C(C)C)C(=O)N1 | MIC |  | ATCC 24433 | 4 µg/mL
CC(=O)Sc1c[n+](C)c2ccccc2c1NCC(C)C | MIC | broth dilution | ATCC 10231 | 512 µg/mL
CCOc1ccc(C(C[N+](=O)[O-])Sc2ccccc2C(=O)O)cc1 | MIC |  | ATCC64550 | 3.9 µg/mL
COc1ccccc1N1CCN(CCc2nnnn2[C@@H](C)[C@](O)(Cn2cncn2)c2ccc(F)cc2F)CC1 | MIC |  | V-01-191A-261 (resistant) | 4 µg/mL
C[C@@H](SC1COC(/C=C/C=C/c2ccc(C#N)cc2)OC1)[C@](O)(Cn1cncn1)c1ccc(F)cc1F | MIC |  | ATCC64550 | 0.5 µg/mL
CCCCCOc1ccc(-c2ccc(-c3ccc(C(=O)N[C@H]4C[C@@H](O)[C@@H](O)NC(=O)[C@@H]5[C@@H](O)[C@@H](C)CN5C(=O)[C@H]([C@H](C)O)NC(=O)[C@H]([C@H](O)[C@@H](O)c5ccc(O)cc5)NC(=O)[C@@H]5C[C@@H](O)CN5C(=O)[C@H]([C@H](C)O)NC4=O)cc3)cc2)cc1 | MIC |  |  | 9 µg/mL
CC1(c2ccc(Cl)cc2Cl)OCC(CO/N=C(\Cn2ccnc2)c2ccccc2)O1 | MIC |  |  | ≤10 µg/mL
CC(=O)Nc1ccc(OCC(=O)N2N=C(c3nc4ccccc4[nH]3)CC2c2ccc(F)cc2)cc1 | MIC100 |  | MTCC 227 | 501 µg/mL
COc1ccc(C(Sc2ccccc2C(=O)O)C(C)[N+](=O)[O-])cc1 | MIC |  | ATCC64550 | 15.6 µg/mL
CN(Cc1ccc(S(=O)(=O)N2CCOCC2)cc1)CC(O)(Cn1cncn1)c1ccc(F)cc1F | MIC | resazurin | 98 001 | 0.018 µg/mL
O=C(Nc1ccc(-c2nc3ccccc3[nH]2)cc1)c1ccco1 | MIC |  | ATCC 10231 | 25 µg/mL
CC(=O)Nc1ccc(OCC(=O)N2N=C(c3nc4ccccc4[nH]3)CC2c2cccc([N+](=O)[O-])c2)cc1 | MIC100 |  | MTCC 227 | 250 µg/mL
CCCCCCCCC[C@@H]1CC(=O)NCC(=O)N[C@@H](CCCCN)C(=O)N[C@@H](CCC(=O)O)C(=O)N1 | MIC |  | ATCC 24433 | 64 µg/mL
Cn1c(-c2cccc(N)c2)nc2ccccc21 | MIC |  | ATCC 10231 | 6.25 µg/mL
CN(Cc1ccc(S(=O)(=O)NC(C)(C)C)cc1)CC(O)(Cn1cncn1)c1ccc(F)cc1F | MIC | resazurin | 98 001 | <0.001 µg/mL
CC(=O)Nc1ccc(OCC(=O)N2N=C(c3nc4ccccc4[nH]3)CC2c2ccccc2Cl)cc1 | MIC100 |  | MTCC 227 | 1001 µg/mL
Cn1c(-c2cccc(NC(=O)CSc3ccccc3)c2)nc2ccccc21 | MIC |  | ATCC 10231 | 25 µg/mL
CCCCCCCCCC[C@H]1NC(=O)[C@H](CC(C)(C)C)NC(=O)[C@H](CCCCN)NC(=O)CNC(=O)[C@H]1O | MIC |  |  | 16 µg/mL
CC(=O)Nc1ccc(OCC(=O)N2N=C(c3nc4ccccc4[nH]3)CC2c2cccc(F)c2)cc1 | MIC100 |  | MTCC 227 | 250 µg/mL
Nc1c(-c2nc3ccccc3o2)sc(=S)n1-c1ccc(Cl)cc1 | MIC |  |  | <200 µg/mL
Clc1ccccc1C(Cc1c(Cl)cccc1Cl)Cn1ccnc1 | MIC |  |  | 100 µg/mL
CCCCCCCCC[C@@H]1NC(=O)[C@H](CC(C)(C)C)NC(=O)[C@H](CCCN)NC(=O)CNC(=O)C1(F)F | MIC |  |  | 16 µg/mL
CN1O[C@H](COc2ccc(Cl)cc2)CC1(Cn1ccnc1)c1ccco1 | MIC |  | ATCC26232 | 20 µg/mL
CCOc1ccc(S(=O)(=O)N2CCN(c3ccccc3)CC2)cc1-c1nc2ncccc2c(=O)[nH]1 | MIC | agar diffusion / agar | ATCC 10231 | 62.5 µg/mL
CC(C)c1ccc(NS(=O)(=O)c2ccc(CN(C)CC(O)(Cn3cncn3)c3ccc(F)cc3F)cc2)cc1 | MIC | resazurin | CAAL-74 | 0.17 µg/mL
C[C@H]1[C@H](O)[C@@H](C)/C=C/C=C/C=C/C=C/C=C/C=C/C=C/[C@H](O[C@@H]2O[C@H](C)[C@@H](O)[C@H](N)[C@@H]2O)C[C@@H]2O[C@](O)(C[C@@H](O)C[C@@H](O)CC[C@H](O)[C@@H](O)C[C@@H](O)CC(=O)O[C@H]1C)C[C@H](O)[C@H]2C(=O)O | MIC100 |  | ATCC 10231 | 2.5 µg/mL
CCCNS(=O)(=O)c1ccc(CN(C)CC(O)(Cn2cncn2)c2ccc(F)cc2F)cc1 | MIC | resazurin | 98 001 | <0.001 µg/mL
CCCCCCCCCCC[C@@H]1CC(=O)NCC(=O)N[C@@H](CCCCN)C(=O)N[C@@H](C(C(C)C)C(C)(C)C)C(=O)N1 | MIC |  | ATCC 24433 | 16 µg/mL
N#C/C(=N\Nc1ccc(F)cc1)c1nc2ccccc2o1 | MIC |  |  | >200 µg/mL
CC1(C)OCC(CO/N=C(\Cn2ccnc2)c2ccc(Cl)cc2Cl)O1 | MIC |  |  | ≤10 µg/mL
O=C(Nc1ccc(-c2nc3ccccc3[nH]2)cc1)c1ccc(Br)cc1 | MIC |  | ATCC 10231 | 50 µg/mL
CCCCCCCCC[C@@H]1CC(=O)NCC(=O)N[C@@H](CCCCN)C(=O)N[C@@H](CCCCN)C(=O)N1 | MIC |  | ATCC 24433 | 64 µg/mL
C[C@H](n1nnc(CCN2CCN(c3ccccc3)CC2)n1)[C@](O)(Cn1cncn1)c1ccc(F)cc1F | MIC |  |  | 8 µg/mL
COc1ccccc1-c1cc2cccnc2[nH]1 | MIC100 |  | ATCC 10231 | 7.8 µg/mL
CCCCCCCCC[C@@H]1CC(=O)NCC(=O)N[C@@H](CCCCN)C(=O)N[C@@H](CC(C)C)C(=O)N1 | MIC |  |  | 4 µg/mL
CC1OC(O[C@@]2(C)CC(=O)[C@]3(O)C4=C(C=C[C@]3(O)C2)C(=O)c2c(ccc(C3CCC(OC5CCC(O)C(C)O5)C(C)O3)c2O)C4=O)C=CC1=O | MIC |  | 6 strains | ≥128 µg/mL
COc1ccc(OC[C@H]2CC(Cn3ccnc3)(c3ccco3)N(C)O2)cc1 | MIC |  | ATCC26232 | 70 µg/mL
C[C@@H]1[C@H](O)[C@@H](C)/C=C/C=C/C=C/C=C/C=C/C=C/C=C/[C@H](O[C@@H]2O[C@H](C)[C@@H](O)[C@H](N)[C@@H]2O)C[C@@H]2O[C@](O)(C[C@@H](O)C[C@@H](O)[C@H](O)CC[C@@H](O)C[C@@H](O)CC(=O)O[C@H]1C)C[C@H](O)[C@H]2C(=O)O | MIC |  | ATCC 90028 | 3.1–6.3 µM
Clc1ccc(C(Cc2c(Cl)cccc2Cl)Cn2ccnc2)cc1 | MIC |  |  | >100 µg/mL
CC(=O)Nc1ccc(OCC(=O)N2N=C(c3nc4ccccc4[nH]3)CC2c2ccc(Br)cc2)cc1 | MIC100 |  | MTCC 227 | 100 µg/mL

Again, the opening 6 rows:

smiles | read-out | method | strain | value
CC(=O)Sc1c[n+](C)c2ccccc2c1Nc1ccc(Cl)cc1 | MIC | broth dilution | ATCC 10231 | 256 µg/mL
CCCCCCCCCC[C@@H]1CC(=O)NCC(=O)N[C@@H](CCCCN)C(=O)N[C@@H](CC(C)(C)C)C(=O)N1 | MIC |  |  | 4 µg/mL
C[C@H](n1nnnc1CCN1CCN(c2ccccc2)CC1)[C@](O)(Cn1cncn1)c1ccc(F)cc1F | MIC |  |  | 8 µg/mL
FC(F)(F)c1cc(-c2cc3cc(Br)cnc3[nH]2)cc(C(F)(F)F)c1 | MIC100 |  | ATCC 10231 | 15.6 µg/mL
COc1ccccc1N1CCN(CCc2nnn([C@@H](C)[C@](O)(Cn3cncn3)c3ccc(F)cc3F)n2)CC1 | MIC |  |  | 8 µg/mL
COc1ccc(C(C[N+](=O)[O-])Sc2ccccc2C(=O)O)cc1 | MIC |  | ATCC64550 | 3.9 µg/mL

a–b is a range or a potency band. Rows are shuffled and stem from different studies. Blank or dashed fields: not listed here.